# Assay results reported in publication PMC4322365, “A Ligand-observed Mass Spectrometry Approach Integrated into the Fragment Based Lead Discovery Pipeline” (Scientific Reports, 2015).
# Assay: Recovery rate of fragment after ultrafiltration (nonspecific binding to filter membrane)
# Conditions: MS intensity of the fragment before and after ultrafiltration
structure (smiles),measurement,value
Oc1ccc(F)c(Cl)c1 [Fragment 85],Recovery rate (%),75.6%
Cc1ccc2oc(=O)ccc2c1 [Fragment 117],Recovery rate (%),57.8%
Cn1c(=O)cc(O)c2ccccc21 [Fragment 130],Recovery rate (%),72.9%
Cc1cc(N)n(-c2ccccc2)n1 [Fragment 131],Recovery rate (%),77.1%
Nc1ccc(C(F)(F)F)cn1 [Fragment 162],Recovery rate (%),60.6%
O=C(O)c1ccc(C(F)(F)F)cc1 [Fragment 204],Recovery rate (%),64.4%
Oc1ccc(SC(F)(F)F)cc1 [Fragment 237],Recovery rate (%),86.7%
Cc1nc2ccccc2nc1C [Fragment 339],Recovery rate (%),94.4%
